System: root knot nematodes (Meloidogyne incognita)
Assay: systemic control of root knot nematodes on tomato roots by foliar application
Assay type: in vivo
Details: tomato cv Rutgers, 3 weeks; for Mean percent root disease (galled): mean of three plants, non-treated generally 60% or greater; for percent control of root disease relative to non-treated plants: * = no biological activity at the rate tested

Row | Compound | Mean percent root disease (galled) (100 ppm foliar spray) [%] | percent control of root disease relative to non-treated plants (100 ppm foliar spray) [%] | Mean percent root disease (galled) (500 ppm foliar spray) [%] | percent control of root disease relative to non-treated plants (500 ppm foliar spray) [%]
1 | Phosphonic acid, [[(3,4,4-trifluoro-1-oxo-3 butenyl)amino]methyl]-, disodium salt | 87 | -8 | 80 | 0
2 | CCOP(=O)(CC(F)=C(F)F)OCC | 30 | 44 | 27 | 50

From US5708032A, “Fluoroalkenyl compounds and their use as pest control agents” (Monsanto Company, priority 1995, dated 1998)
